By UniProt entry, the sequences of proteins in these tests, tags left out. Residues count along the entry.
UniProt Q2FV99, 60-206 limits assumed: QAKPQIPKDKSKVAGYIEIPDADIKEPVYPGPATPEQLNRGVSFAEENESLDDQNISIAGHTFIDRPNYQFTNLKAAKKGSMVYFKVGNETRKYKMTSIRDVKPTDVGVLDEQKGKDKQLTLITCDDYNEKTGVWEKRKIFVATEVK

In patent US20120149710A1, “SORTASE A INHIBITORS” (priority 2009, published 2012):

Experiments:
S. aureus = conditions: 500 μM inhibitor, vs 2.5% DMSO control
[1] = target: B. anthracis sortase A enzyme (Bacillus anthracis, UniProt P0DPQ5)
S. aureus SrtA = S. aureus SrtA (Staphylococcus aureus, UniProt Q2FV99); experiment: FRET assay of SrtA-catalyzed hydrolysis of Abz-LPETG-Dap(Dnp); IC50 / Ki app; assay type: biochemical

**Q.** Which results are given for `CC1=NN(c2ccccc2)C(=S)/C1=C/Nc1ccccn1`?
**A.** Effect on S. aureus growth in cell culture, in words (S. aureus): do not substantially affect bacterial growth; potency estimated from few doses [1]: > 34000 nM

**Q.** With `CC1=NN(c2ccccc2)C(=S)/C1=C/Nc1ccc(Br)cc1` as the molecule, how does the “Effect on S. aureus growth in cell culture, in words” value (S. aureus) read?
**A.** do not substantially affect bacterial growth

**Q.** How did the “Inhibition of S. aureus SrtA, potency in words” value (S. aureus SrtA) turn out when `CCOc1cnn(-c2cccc(C)c2)c(=O)c1S` was run?
**A.** low micromolar

**Q.** `CCOc1c(S)cnn(-c2ccccc2)c1=O` was tested. Which “Increase of potency against SrtA relative to compound 2” value (S. aureus SrtA; compare 2 with 2-1) did it give?
**A.** more than 20 fold

**Q.** What about the Ki (S. aureus SrtA; read-out: Ki app, S. aureus SrtA (unit inferred)) of the same molecule?
**A.** 200 nM

**Q.** And the “Ki app value lower than that of compound 2” value (S. aureus SrtA; vs compound 2)?
**A.** about 40 fold

**Q.** How did the “Effect on S. aureus growth in cell culture, in words” value (S. aureus) turn out when `CC1=NN(c2ccccc2)C(=S)/C1=C/Nc1ccc(/N=N/c2ccccc2)cc1` was run?
**A.** do not substantially affect bacterial growth
